pEC50, pIC50: −log10 of the molar value.
Columns and labels:
[1] = Selectivity index, ratio of CC50 for cytotoxicity against human MT4 cells reduction in cell viability for 5 days by MTT assay to EC50 for antiviral activity against wild type HIV-1 strain IIIB infected in human MT4 cells assessed as reduction in virus-induced cytopathogenicity by MTT assay; format: toxicity, cell-based; details: time 5 day, read-out: Selectivity Index
MT4 = experiment: Cytotoxicity in mock-infected human MT4 assessed as reduction in cell viability incubated for 5 days by MTT assay; format: ADME, cell-based; details: mt4, 120 h, time 5 day
[2] = Selectivity index, ratio of CC50 for cytotoxicity against human MT4 cells reduction in cell viability for 5 days by MTT assay to EC50 for antiviral activity against NNRTI-resistant HIV-1 RES056 harboring RT K103N/Y181C mutant infected in human MT4 cells assessed as protection against virus-induced cytopathogenicity after 5 days by MTT assay; format: toxicity, cell-based; details: time 5 day, read-out: Selectivity Index
[3] = test system: Human immunodeficiency virus 2; experiment: Antiviral activity against HIV-2 ROD infected in human MT4 cells assessed as protection against virus-induced cytopathogenicity after 5 days by MTT assay; details: Human immunodeficiency virus 2, ROD, MT4, 120 h
[4] = target: Human immunodeficiency virus type 1 reverse transcriptase (Human immunodeficiency virus 1, UniProt Q72547); experiment: Inhibition of recombinant wild type HIV1 reverse transcriptase assessed as inhibition of biotin-dUTP incorporation into template

Cc1cc(C#N)cc(C)c1Oc1nc(NC2CCN(Cc3ccc(C(N)=O)cc3)CC2)ncc1-c1ccco1
selectivity ratio at 120 h [1]: 1270
CC50 (MT4): 7.35 µM
selectivity ratio at 120 h [2]: 29
pEC50 [3]: < 5.13

Cc1cc(/C=C/C#N)cc(C)c1Oc1nc(NC2CCN(Cc3ccc(S(C)(=O)=O)cc3)CC2)ncc1-c1ccnc(Cl)c1
selectivity ratio at 120 h [1]: 482
CC50 (MT4): 2.04 µM
selectivity ratio at 120 h [2]: 61

Cc1cc(/C=C/C#N)cc(C)c1Oc1nc(NC2CCN(Cc3ccc(S(C)(=O)=O)cc3)CC2)ncc1-c1ccnc(F)c1
selectivity ratio at 120 h [1]: 1060
CC50 (MT4): 5.03 µM
selectivity ratio at 120 h [2]: 200

Cc1cc(C#N)cc(C)c1Oc1nc(NC2CCN(Cc3ccc(S(C)(=O)=O)cc3)CC2)ncc1-c1ccncc1
selectivity ratio at 120 h [1]: 2900
CC50 (MT4): 17.2 µM
selectivity ratio at 120 h [2]: 70
pEC50 [3]: < 4.77

Cc1cc(-c2cnc(NC3CCN(Cc4ccc(C(N)=O)cc4)CC3)nc2Oc2c(C)cc(/C=C/C#N)cc2C)ccn1
selectivity ratio at 120 h [1]: 1840
CC50 (MT4): 6.51 µM
selectivity ratio at 120 h [2]: 358

Cc1cc(/C=C/C#N)cc(C)c1Oc1nc(NC2CCN(Cc3ccc(S(C)(=O)=O)cc3)CC2)ncc1-c1ccc(N)nc1
selectivity ratio at 120 h [1]: 447
CC50 (MT4): 2.36 µM
selectivity ratio at 120 h [2]: 90

Cc1cc(C#N)cc(C)c1Oc1nc(NC2CCN(Cc3ccc(C(N)=O)cc3)CC2)ncc1-c1ccccc1
CC50 (MT4): ≥ 13.4 µM

Cc1cc(/C=C/C#N)cc(C)c1Oc1nc(NC2CCN(Cc3ccc(S(N)(=O)=O)cc3)CC2)ncc1-c1ccncc1
selectivity ratio at 120 h [1]: 2010
CC50 (MT4): 9.25 µM
pIC50 [4]: 6.84
selectivity ratio at 120 h [2]: 404

Cc1cc(C#N)cc(C)c1Oc1nc(NC2CCN(Cc3ccc(S(N)(=O)=O)cc3)CC2)ncc1-c1ccco1
selectivity ratio at 120 h [1]: 2540
CC50 (MT4): 11.2 µM
selectivity ratio at 120 h [2]: 51
pEC50 [3]: < 4.95

Cc1cc(/C=C/C#N)cc(C)c1Oc1nc(NC2CCN(Cc3ccc(C(N)=O)cc3)CC2)ncc1-c1ccnc(Cl)c1
selectivity ratio at 120 h [1]: 4630
CC50 (MT4): 19.1 µM
selectivity ratio at 120 h [2]: 243

Cc1cc(C#N)cc(C)c1Oc1nc(NC2CCN(Cc3ccc(S(C)(=O)=O)cc3)CC2)ncc1-c1ccoc1
selectivity ratio at 120 h [1]: 11700
CC50 (MT4): 55.8 µM
selectivity ratio at 120 h [2]: 323
pEC50 [3]: < 4.25

COc1cc(-c2cnc(NC3CCN(Cc4ccc(S(N)(=O)=O)cc4)CC3)nc2Oc2c(C)cc(/C=C/C#N)cc2C)ccn1
selectivity ratio at 120 h [1]: 957
CC50 (MT4): 5.5 µM
selectivity ratio at 120 h [2]: 160

Cc1cc(/C=C/C#N)cc(C)c1Oc1nc(NC2CCN(Cc3ccc(S(C)(=O)=O)cc3)CC2)ncc1-c1ccc(F)nc1
selectivity ratio at 120 h [1]: 1000
CC50 (MT4): 6.05 µM
selectivity ratio at 120 h [2]: 237

Cc1cc(C#N)cc(C)c1Oc1nc(NC2CCN(Cc3ccc(S(C)(=O)=O)cc3)CC2)ncc1-c1ccco1
selectivity ratio at 120 h [1]: 1650
CC50 (MT4): 7.45 µM
selectivity ratio at 120 h [2]: 32

Cc1cc(/C=C/C#N)cc(C)c1Oc1nc(NC2CCN(Cc3ccc(C(N)=O)cc3)CC2)ncc1-c1ccncc1
selectivity ratio at 120 h [1]: 2430
CC50 (MT4): 10.2 µM
pIC50 [4]: 6.99
selectivity ratio at 120 h [2]: 436

Cc1cc(/C=C/C#N)cc(C)c1Oc1nc(NC2CCN(Cc3ccc(S(N)(=O)=O)cc3)CC2)ncc1-c1ccc(F)nc1
selectivity ratio at 120 h [1]: 2960
CC50 (MT4): 17.1 µM
selectivity ratio at 120 h [2]: 607

Cc1cc(/C=C/C#N)cc(C)c1Oc1nc(NC2CCN(Cc3ccc(S(C)(=O)=O)cc3)CC2)ncc1-c1ccnc(Br)c1
selectivity ratio at 120 h [1]: 711
CC50 (MT4): 3.21 µM
selectivity ratio at 120 h [2]: 97

Cc1cc(C#N)cc(C)c1Oc1nc(NC2CCN(Cc3ccc(S(N)(=O)=O)cc3)CC2)ncc1-c1ccccc1
selectivity ratio at 120 h [1]: 2740
CC50 (MT4): 14.1 µM
selectivity ratio at 120 h [2]: 33
pEC50 [3]: < 4.85

COc1cc(-c2cnc(NC3CCN(Cc4ccc(S(C)(=O)=O)cc4)CC3)nc2Oc2c(C)cc(/C=C/C#N)cc2C)ccn1
selectivity ratio at 120 h [1]: 533
CC50 (MT4): 2.1 µM
selectivity ratio at 120 h [2]: 70

Cc1cc(C#N)cc(C)c1Oc1nc(NC2CCN(Cc3ccc(S(N)(=O)=O)cc3)CC2)ncc1-c1ccsc1
selectivity ratio at 120 h [1]: 1020
CC50 (MT4): 6.13 µM
selectivity ratio at 120 h [2]: 29

Cc1cc(/C=C/C#N)cc(C)c1Oc1nc(NC2CCN(Cc3ccc(S(N)(=O)=O)cc3)CC2)ncc1-c1ccnc(Br)c1
selectivity ratio at 120 h [1]: 1490
CC50 (MT4): 6.6 µM
selectivity ratio at 120 h [2]: 246

Cc1cc(-c2cnc(NC3CCN(Cc4ccc(S(C)(=O)=O)cc4)CC3)nc2Oc2c(C)cc(/C=C/C#N)cc2C)ccn1
selectivity ratio at 120 h [1]: 1170
CC50 (MT4): 5.34 µM
selectivity ratio at 120 h [2]: 169

Cc1cc(/C=C/C#N)cc(C)c1Oc1nc(NC2CCN(Cc3ccc(C(N)=O)cc3)CC2)ncc1-c1ccnc(F)c1
selectivity ratio at 120 h [1]: 1880
CC50 (MT4): 15.5 µM
selectivity ratio at 120 h [2]: 290

Cc1cc(/C=C/C#N)cc(C)c1Oc1nc(NC2CCN(Cc3ccc(C(N)=O)cc3)CC2)ncc1-c1ccc(F)nc1
selectivity ratio at 120 h [1]: 4590
CC50 (MT4): 20.9 µM
selectivity ratio at 120 h [2]: 1020

Cc1cc(C#N)cc(C)c1Oc1nc(NC2CCN(Cc3ccc(S(C)(=O)=O)cc3)CC2)ncc1-c1ccccc1
selectivity ratio at 120 h [1]: 2460
CC50 (MT4): 12.1 µM
selectivity ratio at 120 h [2]: 21
pEC50 [3]: < 4.92

Cc1cc(/C=C/C#N)cc(C)c1Oc1nc(NC2CCN(Cc3ccc(C(N)=O)cc3)CC2)ncc1-c1ccc(N)nc1
selectivity ratio at 120 h [1]: 1960
CC50 (MT4): 12.8 µM
selectivity ratio at 120 h [2]: 424

Cc1cc(/C=C/C#N)cc(C)c1Oc1nc(NC2CCN(Cc3ccc(S(C)(=O)=O)cc3)CC2)ncc1-c1ccncc1
selectivity ratio at 120 h [1]: 1260
CC50 (MT4): 7.2 µM
selectivity ratio at 120 h [2]: 273

Cc1cc(/C=C/C#N)cc(C)c1Oc1nc(NC2CCN(Cc3ccc(S(C)(=O)=O)cc3)CC2)ncc1-c1cccnc1
selectivity ratio at 120 h [1]: 5150
CC50 (MT4): 23.5 µM
selectivity ratio at 120 h [2]: 1050

Cc1cc(/C=C/C#N)cc(C)c1Oc1nc(NC2CCN(Cc3ccc(C(N)=O)cc3)CC2)ncc1-c1cccnc1
selectivity ratio at 120 h [1]: 5300
CC50 (MT4): 25.3 µM
selectivity ratio at 120 h [2]: 1090

COc1cc(-c2cnc(NC3CCN(Cc4ccc(C(N)=O)cc4)CC3)nc2Oc2c(C)cc(/C=C/C#N)cc2C)ccn1
selectivity ratio at 120 h [1]: 861
CC50 (MT4): 6.27 µM
selectivity ratio at 120 h [2]: 156

Cc1cc(C#N)cc(C)c1Oc1nc(NC2CCN(Cc3ccc(S(C)(=O)=O)cc3)CC2)ncc1-c1cccs1
selectivity ratio at 120 h [1]: 2090
CC50 (MT4): 8.38 µM
selectivity ratio at 120 h [2]: 62
pEC50 [3]: < 5.08

Cc1cc(-c2cnc(NC3CCN(Cc4ccc(S(N)(=O)=O)cc4)CC3)nc2Oc2c(C)cc(/C=C/C#N)cc2C)ccn1
selectivity ratio at 120 h [1]: 1100
CC50 (MT4): 4.37 µM
selectivity ratio at 120 h [2]: 190

Cc1cc(/C=C/C#N)cc(C)c1Oc1nc(NC2CCN(Cc3ccc(S(N)(=O)=O)cc3)CC2)ncc1-c1ccnc(F)c1
selectivity ratio at 120 h [1]: 1330
CC50 (MT4): 8.46 µM
selectivity ratio at 120 h [2]: 218

Cc1cc(C#N)cc(C)c1Oc1nc(NC2CCN(Cc3ccc(S(N)(=O)=O)cc3)CC2)ncc1-c1ccncc1
selectivity ratio at 120 h [1]: 2190
CC50 (MT4): 5.67 µM
selectivity ratio at 120 h [2]: 51
pEC50 [3]: < 5.25

Cc1cc(C#N)cc(C)c1Oc1nc(NC2CCN(Cc3ccc(C(N)=O)cc3)CC2)ncc1-c1ccsc1
selectivity ratio at 120 h [1]: 8840
CC50 (MT4): 37.3 µM
selectivity ratio at 120 h [2]: 90
pEC50 [3]: < 4.43

Cc1cc(C#N)cc(C)c1Oc1nc(NC2CCN(Cc3ccc(C(N)=O)cc3)CC2)ncc1-c1cccs1
selectivity ratio at 120 h [1]: 2770
CC50 (MT4): 9.26 µM
selectivity ratio at 120 h [2]: 80
pEC50 [3]: < 5.03

Cc1cc(C#N)cc(C)c1Oc1nc(NC2CCN(Cc3ccc(C(N)=O)cc3)CC2)ncc1-c1ccoc1
selectivity ratio at 120 h [1]: 53600
CC50 (MT4): 181 µM
selectivity ratio at 120 h [2]: 1680

Cc1cc(/C=C/C#N)cc(C)c1Oc1nc(NC2CCN(Cc3ccc(S(N)(=O)=O)cc3)CC2)ncc1-c1cccnc1
selectivity ratio at 120 h [1]: 4060
CC50 (MT4): 20.4 µM
selectivity ratio at 120 h [2]: 793

Cc1cc(/C=C/C#N)cc(C)c1Oc1nc(NC2CCN(Cc3ccc(C(N)=O)cc3)CC2)ncc1-c1ccnc(Br)c1
selectivity ratio at 120 h [1]: 1350
CC50 (MT4): 9.45 µM
selectivity ratio at 120 h [2]: 293

Cc1cc(/C=C/C#N)cc(C)c1Oc1nc(NC2CCN(Cc3ccc(S(N)(=O)=O)cc3)CC2)ncc1-c1ccnc(Cl)c1
selectivity ratio at 120 h [1]: 904
CC50 (MT4): 3.89 µM
selectivity ratio at 120 h [2]: 185

Cc1cc(C#N)cc(C)c1Oc1nc(NC2CCN(Cc3ccc(S(N)(=O)=O)cc3)CC2)ncc1-c1ccoc1
selectivity ratio at 120 h [1]: 11600
CC50 (MT4): 29.1 µM
pIC50 [4]: 7.04
selectivity ratio at 120 h [2]: 180
pEC50 [3]: < 4.54

Cc1cc(C#N)cc(C)c1Oc1nc(NC2CCN(Cc3ccc(S(C)(=O)=O)cc3)CC2)ncc1-c1ccsc1
selectivity ratio at 120 h [1]: 863
CC50 (MT4): 4.25 µM
selectivity ratio at 120 h [2]: 17
pEC50 [3]: < 5.37

Cc1cc(C#N)cc(C)c1Oc1nc(NC2CCN(Cc3ccc(S(N)(=O)=O)cc3)CC2)ncc1-c1cccs1
selectivity ratio at 120 h [1]: 11800
CC50 (MT4): 53.8 µM
selectivity ratio at 120 h [2]: 520

Cc1cc(C#N)cc(C)c1Oc1nc(Nc2ccc(C#N)cc2)nc(N)c1Br [ETRAVIRINE]
CC50 (MT4): > 4.59 µM

Source: ChEMBL document CHEMBL4834412, “2,4,5-Trisubstituted Pyrimidines as Potent HIV-1 NNRTIs: Rational Design, Synthesis, Activity Evaluation, and Crystallographic Studies” (J Med Chem, 2021)
